# According to US10590365B2, “Compounds for a controlled release of active molecules” (FIRMENICH SA, priority 2013, dated 2020):
# System: Propionibacterium acnes ATCC 6919
# Assay: Incubation of pro-perfume glucuronide mixture with skin bacteria; remaining conjugate by LC-MS
# Type: cell-based
# Conditions: After 1 day, 37° C.; result in words
# Experimental: The liberation of perfuming alcohols from the present invention's compounds of formula (I) was tested in vitro during incubation with defined skin bacteria strains.
# c) Bacterial solutions: Two underarm bacterial isolates, Propionibacterium acnes ATCC 6919 and Staphylococcus warneri DSM 20316 (identified by 16S rDNA sequencing by Deutsche Sammlung von Mikroorganismen and ZellKulturen DSMZ, Germany), were cultivated on SCH agar at 37° C. during 72 h in anaerobic conditions and on TSA at 37° C. during 24 h, respectively.
# One isolated colony of P. acnes from the pure primary culture on SCH agar was inoculated on a new SCH agar and incubated at 37° C., 72 h in anaerobic conditions. After incubation, the whole culture was dissociated by shaking in 20 ml of NaCl 0.9% then centrifuged 10 min at 5000 rpm at room temperature. The pellet was washed in NaCl 0.9% and concentrated two times in NaCl 0.9%. […]
# The vials were placed in a heating block at 37° C. under gentle stirring from 1 to 7 days depending on the bacteria solutions. At the end of the incubation time, vials were cooled down to room temperature, 150 μL was mixed with 50 μL of LC-MS solvent B, filtered through acrodisc and 1 μL was injected on LC-MS (peak areas considered were measured in SIM mode according to their respective molecular weights). […]
smiles,measurement,value
"CC1CCC(C(C)C)C(OC2O[C@H](C(=O)O)[C@@H](O)[C@H](O)[C@H]2O)C1 (stereo partly shown) [p-menthan-3-ol, glucopyranosiduronic acid 1-menthyl]",Glucuronide-conjugates remaining after incubation with Propionibacterium acnes,No transformation
